A mixed list of measured activities; the numbers were collected in NIAID ChemDB.

All rows: growth or infection tests; agent: HIV-1; cells: CEM + CEM-SS; measure: EC50

An empty or dashed field is not shown.

structure	strain	changes	method	value
FC(c1cccnc1)C(F)(F)c1nc(-c2ccccc2)no1	LAI		RT activity	>100 µM
CSCC[C@H](NC(=O)[C@H](CCO)N(Cc1ccccc1)C(=O)[C@H](Cc1ccccc1)NC(=O)OC1c2ccccc2-c2ccccc21)C(=O)NC(C)(C)C	IIIB		p24	0.118 µM
O=c1[nH]cnc2c1ccn2[C@H]1C=C[C@@H](CO)C1	LAI		RT activity	>100 µM
Cc1ccc(OCCOCn2ccc(=O)[nH]c2=O)cc1			cytopathic effect	16.1 µM
CC1=C2N3C[C@H](n4c(=O)n(C)c(=O)n43)C23CCC1n1c(=O)n(C)c(=O)n13	RF		cytopathic effect / XTT	>200 µg/mL
CC(C)=CCOc1cc(NC(=S)c2ccsc2C)ccc1Cl	NL4-3	RT-Y188C	p24	0.006 µM
Cc1ccc(OCCOCn2c(C)c(C)c(=O)[nH]c2=O)cc1			cytopathic effect	76.8 µM
CCCCCCCCCCCCCCCC(=O)Nc1ccn([C@H]2CC[C@@H](COP(=O)(O)OC[C@H]3O[C@@H](n4cc(C)c(=O)[nH]c4=O)C[C@@H]3N=[N+]=[N-])O2)c(=O)n1	D148/89 (AZT-resistant RT M41L D67N K70R T215Y)	RT-M41L D67N K70R T215Y	cytopathic effect / XTT	0.045 µM
CC1(c2nc3ccccc3[nH]2)CCC(CO)C(C)(C)O1	RF			>0.063 µM
CC(C)CCC[C@@H](C)[C@H]1CC[C@H]2[C@@H]3CC[C@H]4C[C@@H](CCC=C(c5cc(Cl)c(O)c(C(=O)O)c5)c5cc(Cl)c(O)c(C(=O)O)c5)CC[C@]4(C)[C@H]3CC[C@]12C	RF		cytopathic effect / XTT	5.1 µM
O=C(O)CCCCCCCCCCCCC(=O)NC(CO[C@@H]1O[C@H](CO)[C@H](O)[C@H](O)[C@H]1O)C(=O)NCCO	LAI		cytopathic effect / MTT	>100 µM
Nc1ccn([C@H]2CC[C@@H](CO)O2)c(=O)n1	RF			0.039 µM
Nc1nc(Cl)c2ccn([C@H]3C=C[C@@H](CO)C3)c2n1	LAI		RT activity	>100 µM
Cc1cc(=O)[nH]c(=O)n1COCCOc1ccc(Cl)cc1			cytopathic effect	>100 µM
Cc1cc(C)cc(Oc2c(C(C)C)c(=O)[nH]c(=O)n2CCC2=CCCC2)c1	RF		cytopathic effect / XTT	0.42 µM
Cc1c(O)cccc1C(=O)N[C@@H](Cc1ccccc1)[C@H](O)CN1C[C@H]2CCCC[C@H]2C[C@H]1C(=O)NC(C)(C)C	HXB2		cytopathic effect / XTT	0.033 µM
CSCC[C@H](NC(=O)[C@H](CO)N(Cc1ccccc1)C(=O)[C@H](Cc1ccccc1)NC(=O)OCc1ccccc1)C(=O)NC(C)(C)C	IIIB		p24	0.31 µM
CC1(c2nc3ccccc3[nH]2)CCC(C(=O)O)C(C)(C)O1	RF			>200 µM
CCCCCCCC(=O)O.CCCCCCCCNCC(O)C(O)C(OC1OC(CO)C(O)C(O)C1O)C(O)CO	LAI		MTT	>1000 µM
CCCCCCCCCCc1nccn(C(CO)OC(CO)CO)c1=O	LAI			>100 µM
CCCCCCCCCCCCCCNC(=O)C(CO[C@@H]1O[C@H](CO)[C@H](O)[C@H](O)[C@H]1O)NC(=O)CC(=O)NCCS(=O)(=O)O	LAI		cytopathic effect / MTT	50 µM
FC(c1cccnc1)C(F)(F)c1nc2ccccc2o1	LAI		RT activity	>100 µM
CCc1c(C)[nH]c(=O)c2c1Sc1ccccc1C(=O)N2	LAI		RT activity	0.084 µM
CCCc1cc(=O)oc2c3c(c4c(c12)OC(C)(C)C=C4)O[C@H](C)[C@@H](C)[C@@H]3O			cytopathic effect / MTT	0.08 µM
Fc1cccc(C2SCc3nc4cc5ccccc5cc4n32)c1	RF			>200 µM
COc1ccc(C2(CCc3ccc(O)cc3)CC(O)=C(Sc3cc(C)c(CO)cc3C(C)(C)C)C(=O)O2)cc1	RF		cytopathic effect / XTT	2 µM
Fc1cccc(Cl)c1C1SCc2nc3cc4ccccc4cc3n21	RF			>200 µM
O=c1ccn(COCCOc2ccc(Cl)cc2)c(=O)[nH]1			cytopathic effect	23.7 µM
Nc1ccn([C@H]2CC[C@@H](CO)O2)c(=O)n1				0.023 µM
Cc1ccc(OCCOCn2cc(C)c(=O)[nH]c2=O)cc1			cytopathic effect	>100 µM
O=C(NNc1ccn([C@H]2CC[C@@H](CO)O2)c(=O)n1)c1ccccc1O				>100 µM
CC1(c2nc3ccccc3[nH]2)CCC(C#N)C(C)(C)O1	RF			>0.063 µM
COC(c1ccccc1)C(F)(F)c1nc2ccccc2o1	LAI		RT activity	>100 µM
CCCCCCCCCCCCCCCC(=O)N(CCCCCCCCCCC(=O)O)C[C@H](O)[C@@H](O)[C@H](O[C@@H]1O[C@H](CO)[C@H](O)[C@H](O)[C@H]1O)[C@H](O)CO	LAI		MTT	50 µM
CCCc1cc(=O)oc2c1=C1OC(C)(C)CCC1C1O[C@@H](C)[C@H](C)[C@H](O)C=21			cytopathic effect / MTT	1.6 µM
CC(C)CCC[C@@H](C)[C@H]1CC[C@H]2[C@@H]3CC[C@H]4C[C@@H](NC(=O)CC=C(c5cc(Cl)c(O)c(C(=O)O)c5)c5cc(Cl)c(O)c(C(=O)O)c5)CC[C@]4(C)[C@H]3CC[C@]12C	RF		cytopathic effect / XTT	22.6 µM
CSCC[C@H](NC(=O)[C@H](CCO)N(Cc1ccccc1)C(=O)[C@H](CC(C)C)NC(=O)OCC1c2ccccc2-c2ccccc21)C(=O)NC(C)(C)C	IIIB		p24	0.052 µM
O=C(c1ccccc1)C(F)(F)c1nc2ccccc2o1	LAI		RT activity	>100 µM
COc1c(Cl)cc(C(=CCC[C@H]2CC[C@@]3(C)[C@@H](CC[C@@H]4[C@@H]3CC[C@]3(C)[C@@H]([C@H](C)CCCC(C)C)CC[C@@H]43)C2)c2cc(Cl)c(OC)c(C(=O)O)c2)cc1C(=O)O	RF		cytopathic effect / XTT	13.9 µM
Cc1cc(C)cc(C(=O)c2c(C(C)C)c(=O)[nH]c(=O)n2CC2=CCCC2)c1	RF		cytopathic effect / XTT	0.0001 µM
NCCCCCCCCNC(=O)Cc1cn([C@@H]2C=C[C@H](CO)O2)c(=O)[nH]c1=O	LAI		cytopathic effect / MTT	>100 µM
CCCCCCCCCCCCCC(=O)NCC(C(=O)CCCCCCCCCCCCC)C(=O)NCCNC(=O)C(O)C(O[C@@H]1O[C@H](CO)[C@H](O)[C@H](O)[C@H]1O)C(O)CO	LAI		cytopathic effect / MTT	>100 µM
COC(c1ccc(F)cc1)C(F)(F)c1nc2ccccc2o1	LAI		RT activity	>100 µM
Cc1cn([C@H]2C[C@H](OP(=O)(O)OC[C@@H]3CC[C@H](n4ccc(N)nc4=O)O3)[C@@H](CO)O2)c(=O)[nH]c1=O	IIIB		cytopathic effect / XTT	0.134–0.267 µM
CCc1c(C)[nH]c(=O)c(N)c1Sc1cc(C)cc(C)c1	LAI		RT activity	0.014 µM
NCCCCCCCCCCCCNC(=O)Cc1cn([C@@H]2C=C[C@H](CO)O2)c(=O)[nH]c1=O	LAI		cytopathic effect / MTT	4.4 µM
O=C(c1ccc(F)cc1)C(F)(F)c1nc2ccccc2o1	LAI		RT activity	>100 µM
CC(C)=CCOc1cc(NC(=S)c2ccoc2C)ccc1Cl	UC10-resistant (RT Y181C K101E)	RT-Y181C K101E	cytopathic effect / XTT	>2 µM
Fc1ccc(C(F)C(F)(F)c2nc3ccccc3o2)cc1	LAI		RT activity	>100 µM
NCCCCCCCCCCNC(=O)Cc1cn([C@@H]2C=C[C@H](CO)O2)c(=O)[nH]c1=O	IIIB		cytopathic effect / MTT	>100 µM
Oc1ccc([C@H]2c3c(O)cc(O)c(O)c3-c3c(-c4ccc(O)c(O)c4)oc4cc(O)cc(c34)[C@H]2O)cc1	RF		cytopathic effect / XTT	>21 µg/mL
CCCCCCCCCCc1nccnc1OCCCCO	LAI			>100 µM
COc1c(Cl)cc(C(=CCC(=O)N[C@@H]2CC[C@@]3(C)[C@@H](CC[C@@H]4[C@@H]3CC[C@]3(C)[C@@H]([C@H](C)CCCC(C)C)CC[C@@H]43)C2)c2cc(Cl)c(OC)c(C(=O)O)c2)cc1C(=O)O	RF		cytopathic effect / XTT	>13.5 µM
O=C(c1cccnc1)C(F)(F)c1nc2ccccc2o1	LAI		RT activity	>100 µM

Repeating the final 6 entries:

structure	strain	changes	method	value
Fc1ccc(C(F)C(F)(F)c2nc3ccccc3o2)cc1	LAI		RT activity	>100 µM
NCCCCCCCCCCNC(=O)Cc1cn([C@@H]2C=C[C@H](CO)O2)c(=O)[nH]c1=O	IIIB		cytopathic effect / MTT	>100 µM
Oc1ccc([C@H]2c3c(O)cc(O)c(O)c3-c3c(-c4ccc(O)c(O)c4)oc4cc(O)cc(c34)[C@H]2O)cc1	RF		cytopathic effect / XTT	>21 µg/mL
CCCCCCCCCCc1nccnc1OCCCCO	LAI			>100 µM
COc1c(Cl)cc(C(=CCC(=O)N[C@@H]2CC[C@@]3(C)[C@@H](CC[C@@H]4[C@@H]3CC[C@]3(C)[C@@H]([C@H](C)CCCC(C)C)CC[C@@H]43)C2)c2cc(Cl)c(OC)c(C(=O)O)c2)cc1C(=O)O	RF		cytopathic effect / XTT	>13.5 µM
O=C(c1cccnc1)C(F)(F)c1nc2ccccc2o1	LAI		RT activity	>100 µM

Two numbers with a dash give a range or band. Neighbouring rows are from separate reports. ECn: concentration that inhibits the pathogen or its effect by n%.